# Paper PMC5404532, “Simplified Reversed Chloroquines To Overcome Malaria Resistance to Quinoline-Based Drugs” (Antimicrobial Agents and Chemotherapy, 2017)
# Test system: mouse spleen lymphocytes
# Test: Cytotoxicity against mouse spleen lymphocytes
# Type: cell-based
# Settings: unitless; cytotoxicity/efficacy against D6
row,SMILES,T.I. (therapeutic index)
1,"Clc1ccc2c(NCCCN3CCN(c4cccc(-c5ccccc5)c4)CC3)ccnc2c1 [Compound 7, N-(3-(4-(Biphenyl-3-yl)piperazin-1-yl)propyl)-7-chloroquinolin-4-amine]","2,300"
2,"Clc1ccc2c(NCCCN3CCN(c4ccccc4-c4ccccc4)CC3)ccnc2c1 [Compound 6, N-(3-(4-(Biphenyl-2-yl)piperazin-1-yl)propyl)-7-chloroquinolin-4-amine]","1,400"
3,"Clc1ccc2c(NCCCN3CCN(c4ccc(-c5ccccc5)cc4)CC3)ccnc2c1 [Compound 8, N-(3-(4-(Biphenyl-4-yl)piperazin-1-yl)propyl)-7-chloroquinolin-4-amine]","3,700"
4,Clc1ccc2c(NCCCN3CCN(C(c4ccccc4)c4ccccc4)CC3)ccnc2c1 [Compound 3],580
5,CN(CCCNc1ccnc2cc(Cl)ccc12)CCCN1c2ccccc2CCc2ccccc21 [Compound 1],240
6,O=C(CNCCNc1ccnc2cc(Cl)ccc12)N(Cc1ccccc1)Cc1ccccc1 [Compound 2],"4,400"
7,"Clc1ccc2c(NCCCN3CCN(c4ncccn4)CC3)ccnc2c1 [Compound 23, 7-Chloro-N-(3-(4-(pyrimidin-2-yl)piperazin-1-yl)propyl)quinolin-4-amine]","20,000"
